This series relates to MT2. The series can be described thus: Cytotoxicity in human MT2 cells assessed as inhibition of cell growth. In kind it is cell-based.

For orientation: CC50 means the concentration at which the toxic effect on the cells reaches its halfway point. With `N#Cc1ccc(Nc2ncc(Cc3c(F)cccc3F)o2)cc1Cl`, the CC50 is 10 µM.

Source of the values: ChEMBL document CHEMBL2321848, “Optimization of benzyloxazoles as non-nucleoside inhibitors of HIV-1 reverse transcriptase to enhance Y181C potency” (Bioorg Med Chem Lett, 2013).
